Pooled drug test results. Numbers come from NIAID ChemDB, via PubChem.

All rows: tests in culture; organism: Staphylococcus aureus; endpoint: MIC

Rows are shuffled and stem from different studies.

compound	strain or isolate	result
Cc1c(NC(C)C)c(F)cc2c(=O)c(C(=O)O)cn(-c3cc(N)c(F)cc3F)c12	MR8736 (methicillin-resistant)	0.5 µg/mL
NCC1CCN(c2nc3c(cc2F)c(=O)c(C(=O)O)cn3C2CC2)C1	Giorgio	0.031 µg/mL
Cc1c(NCCO)c(F)cc2c(=O)c(C(=O)O)cn(-c3cc(N)c(F)cc3F)c12	209P	0.015 µg/mL
O=C(CO)N1CCN(c2ccc(N3C[C@H](CNc4ccon4)OC3=O)cc2F)CC1	122 (novobiocin-resistant)	4 µg/mL
CC[C@H]1OC(=O)[C@H](C)C(=O)[C@H](C)[C@@H](O[C@@H]2O[C@H](C)C[C@H](N(C)C)[C@H]2O)[C@@]2(C)C[C@@H](C)C(=NC(C)=O)[C@H](C)C(OC/C(=C\C#Cc3ccc(N)nc3)CO2)[C@]1(C)O	33591 (erythromycin methicillin-resistant)	>64 µg/mL
O=C(O)c1cn(C2CC2)c2cc(NCCCO)c(F)cc2c1=O	ATCC 6538P	>100 µg/mL
CC(=O)NC[C@H]1CN(c2ccc(-c3ccn[nH]3)c(F)c2)C(=O)O1	UC9213 (methicillin-susceptible)	4 µg/mL
CCOC(CNc1cc2c(cc1F)c(=O)c(C(=O)O)cn2C1CC1)OCC	ATCC 6538P	>100 µg/mL
CCOC(=O)c1nc(-c2ccc(N3C[C@H](CNC(C)=O)OC3=O)cc2F)ns1	UC6685 (methicillin-resistant)	>16 µg/mL
C=C1COC2[C@@H](C)C(=NC(C)=O)[C@H](C)C[C@@](C)(OC1)[C@H](O[C@@H]1O[C@H](C)C[C@H](N(C)C)[C@H]1O)[C@@H](C)C(=O)[C@@H](C)C(=O)O[C@H](CC)[C@@]2(C)O	33591 (erythromycin methicillin-resistant)	>64 µg/mL
CN(C)CC(C)(C)CNc1cc2c(cc1F)c(=O)c(C(=O)O)cn2C1CC1	ATCC 5278 (methicillin-resistant)	>100 µg/mL
Cc1cn(-c2ccc(N3C[C@H](CNc4ccon4)OC3=O)cc2F)cn1	004 (methicillin quinolone-resistant)	0.5 µg/mL
CC(C)NCCCNc1cc2c(cc1F)c(=O)c(C(=O)O)cn2C1CC1	ATCC 5278 (methicillin-resistant)	12.5 µg/mL
COc1c(CN(C)C)cccc1C1OC(c2ccncc2)=NN1C(C)=Nc1ccc(F)cc1	MTCC96	6.25 µg/mL
NCCOc1cc2c(cc1F)c(=O)c(C(=O)O)cn2-c1ccc(F)cc1F	ATCC 6538P	0.78 µg/mL
CC(=O)NC[C@H]1CN(c2ccc(-c3ccn(C)n3)c(F)c2)C(=O)O1	UC6685 (methicillin-resistant)	4 µg/mL
COc1c(CN(C)C)cccc1C1OC(c2ccncc2)=NN1C(C)=Nc1cccc(F)c1	MTCC96	6.25 µg/mL
CC(=O)NC[C@H]1CN(c2ccc(-c3ccnn3C)c(F)c2)C(=O)O1	UC6685 (methicillin-resistant)	≤0.5 µg/mL
CC[C@H]1OC(=O)[C@H](C)C(=O)[C@H](C)[C@@H](O[C@@H]2O[C@H](C)C[C@H](N(C)C)[C@H]2O)[C@@]2(C)C[C@@H](C)C(=NC(C)=O)[C@H](C)C(OC/C(=C\C#Cc3cccnc3)CO2)[C@]1(C)O	33591 (erythromycin methicillin-resistant)	>64 µg/mL
O=C1O[C@@H](COc2cnsn2)CN1c1ccc(-n2ccnc2)c(F)c1	122 (novobiocin-resistant)	0.5 µg/mL
Cc1c(N)c(F)cc2c(=O)c(C(=O)O)cn(-c3cc(N)c(F)cc3F)c12	MR8736 (methicillin-resistant)	8 µg/mL
CC[C@H]1OC(=O)[C@H](C)C(=O)[C@H](C)[C@@H](O[C@@H]2O[C@H](C)C[C@H](N(C)C)[C@H]2O)[C@@]2(C)C[C@@H](C)C(=NC(C)=O)[C@H](C)C(OC/C(=C\C#Cc3ccc(N)cc3)CO2)[C@]1(C)O	27660 (erythromycin-resistant)	0.13 µg/mL
CC(=O)NC[C@H]1CN(c2ccc(-c3nsc(C(N)=O)n3)c(F)c2)C(=O)O1	UC6685 (methicillin-resistant)	8 µg/mL
CC[C@H]1OC(=O)[C@H](C)C(=O)[C@H](C)[C@@H](O[C@@H]2O[C@H](C)C[C@H](N(C)C)[C@H]2O)[C@@]2(C)C[C@@H](C)C(=NC(C)=O)[C@H](C)C(OC/C(=C\c3cnc4ccccc4c3)CO2)[C@]1(C)O	29213 (erythromycin-susceptible)	0.5 µg/mL
CNC(=O)N[C@@H]1CCN(c2ccc(N3C[C@H](CNc4ccon4)OC3=O)cc2F)C1	122 (novobiocin-resistant)	0.5 µg/mL
CC[C@H]1OC(=O)[C@H](C)C(=O)[C@H](C)[C@@H](O[C@@H]2O[C@H](C)C[C@H](N(C)C)[C@H]2O)[C@@]2(C)C[C@@H](C)C(=NC(C)=O)[C@H](C)C(OC/C(=C\C#Cc3ccccc3)CO2)[C@]1(C)O	33591 (erythromycin methicillin-resistant)	>64 µg/mL
N#Cc1ccc(N2CCN(c3ccc(N4C[C@H](COc5cnccn5)OC4=O)cc3F)CC2)nn1	004 (methicillin quinolone-resistant)	1 µg/mL
CCN(CC)CCCNc1cc2c(cc1F)c(=O)c(C(=O)O)cn2C1CC1	ATCC 6538P	50 µg/mL

The last 2 rows once more:

N#Cc1ccc(N2CCN(c3ccc(N4C[C@H](COc5cnccn5)OC4=O)cc3F)CC2)nn1 ; strain or isolate: 004 (methicillin quinolone-resistant) ; result: 1 µg/mL
CCN(CC)CCCNc1cc2c(cc1F)c(=O)c(C(=O)O)cn2C1CC1 ; strain or isolate: ATCC 6538P ; result: 50 µg/mL